A mixed list of measured activities; the numbers were collected in NIAID ChemDB.

Shared fields: whole-cell or culture tests; agent: Candida albicans; endpoint: MIC

Neighbouring rows are from separate reports. Blank or dashed fields: not listed here. a–b is a range or a potency band.

SMILES | strain | result
CC1=NN(c2nnc3c(n2)Nc2ccccc2C3)C(=O)C1 | ATCC 2091 | 200 µg/mL
CCCN=c1ssc2ncccc12 | - | 20 µg/mL
NNC(=O)c1ccc(OCc2ccccc2)cc1O | Clinical isolates | 125–250 µg/mL
CCC(C)CCCCCCCCC1CC(=O)NCC(=O)N[C@@H](CCCN)C(=O)N[C@@H](C(C)C)C(=O)N1 | IFM 40009 | 1.25 µg/mL
CCCCCOc1ccc(C(=O)NN)c(O)c1 | Clinical isolates | 125–250 µg/mL
CC(C)C(=O)CCC[C@H]1CO[C@@](Cn2ccnc2)(c2ccc(F)cc2F)C1 | IFO. 1385 | <0.1 µg/mL
O=S(=O)(NC(=S)Nc1ccccc1)c1ccc(N2N=C(c3ccc(Cl)cc3)C(Br)C2c2ccccc2)cc1 | ATCC 2091 | 12.5 µg/mL
CC1CCC(C(C)C)C(OC(=O)c2ccc([N+](=O)[O-])cc2)C1 | - | 5.13 µM
O=C(NCCc1ccccc1)c1ccc[nH]c1=S | - | 5 µg/mL
C(=C\c1ccccc1)/COC(Cn1ccnc1)c1ccccc1 | Y0109 | >128 µg/mL
CCOc1cc2c(cc1F)n([O-])c(C)c(S(=O)(=O)c1ccccc1)[n+]2=O | Clinical isolate 7 | 15.6 µg/mL
CCCNC(=S)c1ccc[nH]c1=S | - | 20 µg/mL
CC(C)C(=O)CCC[C@H]1CO[C@@](Cn2cncn2)(c2ccc(F)cc2F)C1 | CI-2 | >100 µg/mL
CN(CCCC#CC(C)(C)C)c1cccc2c1CCC(=O)N2 | Clinical isolate 1 | 62.5 µg/mL
CC1CCC(C(C)C)C(OC(=O)c2ccc(Cl)cc2Cl)C1 | - | 19.05 µM
COc1ccc(-c2csc(N3N=C(c4cccs4)CC3c3ccccc3)n2)cc1 | Clinical isolates | 125 µg/mL
Cc1c(S(=O)(=O)c2ccccc2)[n+](=O)c2ccccc2n1[O-] | Clinical isolate 4 | 31.25 µg/mL
CN(Cc1cccc2ccccc12)/N=C\c1ccc(C(C)(C)c2ccccc2)cc1 | - | >64 µg/mL
Clc1ccc(C(Cn2ccnc2)OCc2ccc(-c3ccccc3)cc2)cc1 | CA12 | >128 µg/mL
COc1ccc(-c2csc(N3N=C(c4cccs4)CC3c3ccc(F)cc3)n2)cc1 | Clinical isolates | 125 µg/mL
CCCCCCCCCCCCCCCCCC(=O)NC1CC(O)C(O)NC(=O)C2C(O)C(C)CN2C(=O)C(C(C)O)NC(=O)C(C(O)C(O)c2ccc(O)cc2)NC(=O)C2CC(O)CN2C(=O)C(C(C)O)NC1=O | MY1055 | 0.25 µg/mL
CC1CCC(C(C)C)C(OC(=O)c2ccccc2Br)C1 | - | 9.12 µM
CCCCCCCCSc1ccnc(C(N)=S)c1 | ATCC 44859 | >500 µM
CO[C@H]1[C@@H](O)[C@H](n2ccc(=O)[nH]c2=O)O[C@@H]1[C@@H](O[C@H]1OC(C(N)=O)=C[C@H](O)[C@@H]1O)C(N)=O | YU-1200 | >100 µg/mL
CCSSc1ssc(=S)c1OC | Clinical isolate 00-604 | <0.13 µg/mL
COc1cc(OC(C)C)ccc1C(=O)O | Clinical isolates | 125–250 µg/mL
COc1ccc(-c2csc(N3N=C(c4cccs4)CC3c3ccc(Cl)cc3)n2)cc1 | Clinical isolates | 125 µg/mL
Cc1ccc(C(Cn2ccnc2)OCc2ccc(-c3ccccc3)cc2)cc1 | CA12 | 128 µg/mL
O=C(N/N=C/c1cc([N+](=O)[O-])ccc1O)c1ccc(I)cc1 | ATCC 90028 | >25 µg/mL
CC(C)(C)c1ccc(COC(Cn2ccnc2)c2ccccc2)cc1 | CDCB385 | 128 µg/mL
CCC(C)CCCCCCC1CC(=O)NCC(=O)N[C@@H](CCCN)C(=O)N[C@@H](C(C)C)C(=O)N1 | IFM 40009 | 2.5 µg/mL
Cc1ccc(-c2csc(N3N=C(c4cccs4)CC3c3ccc([N+](=O)[O-])cc3)n2)cc1 | Clinical isolates | 250 µg/mL
CCCCCCCCCCSc1cc(=S)ss1 | ATCC 10231 | >250 µg/mL
NNC(=O)c1cc(O)ccc1O | Clinical isolates | 125–250 µg/mL
CCOc1cc2c(cc1F)n([O-])c(C)c(Cl)[n+]2=O | Clinical isolate 17 | 62.5 µg/mL
CN(Cc1cccc2ccccc12)/N=C\c1ccc(F)cc1 | - | >64 µg/mL
CCCCNC(=O)c1ccc[nH]c1=S | - | 20 µg/mL
CN(Cc1cccc2ccsc12)/N=C\c1ccc(F)cc1 | - | >64 µg/mL
S=c1cc(Sc2ccccc2)ss1 | Clinical isolate 00-622 | <0.13 µg/mL
NC(=S)c1cc(SC2CCCCC2)ccn1 | ATCC 44859 | 500 µM
Cc1cccc(C(=O)OC2CC(C)CCC2C(C)C)c1 | - | 11.48 µM
COc1ccc(-c2csc(N3N=C(c4cccs4)CC3c3ccc(C)cc3)n2)cc1 | Clinical isolates | 125 µg/mL
CC(C)C(=O)CCC[C@@H]1CO[C@@](Cn2cccc2)(c2ccc(F)cc2F)C1 | IFO. 1385 | >100 µg/mL
CCCCCCCCOc1ccc(C(=O)NC2C[C@@H](O)[C@@H](O)NC(=O)C3[C@@H](O)[C@@H](C)CN3C(=O)C(C(C)O)NC(=O)C([C@H](O)[C@@H](O)c3ccc(O)cc3)NC(=O)C3C[C@@H](O)CN3C(=O)C(C(C)O)NC2=O)cc1 | MY1585 | 1 µg/mL
CC1CCC(C(C)C)C(OC(=O)CCl)C1 | - | 13.49 µM
O=C(O)c1ccc(OCc2ccccc2)cc1O | Clinical isolates | 125–250 µg/mL
CCCSc1cc(=S)ss1 | ATCC 10231 | 25 µg/mL
CS[C@@]1(Cc2ccccc2)NC(=O)[C@@](Cc2ccccc2)(SC)NC1=O | - | 50 µg/mL
COc1cc(OCc2ccccc2)ccc1C(=O)O | Clinical isolates | 125–250 µg/mL
CCSc1ccnc(C(N)=S)c1 | ATCC 44859 | 1000 µM
CCCCCn1sc2ncccc2c1=O | - | 20 µg/mL
CCC(C)n1ncn(-c2ccc(N3CCN(c4ccc(OC[C@H]5CO[C@](Cn6cncn6)(c6ccc(Cl)cc6Cl)O5)cc4)CC3)cc2)c1=O | A28200 | 0.015 µg/mL
CC(C)C(=N)CCC[C@H]1CO[C@@](Cn2cccc2)(c2ccc(F)cc2F)C1 | IFO. 1385 | 12.5 µg/mL
O=c1oc2c(Br)cc(Br)cc2cc1-c1nc2ccccc2c2nc3c4nsnc4ccc3n12 | - | 4 µg/mL
CCCCSc1cc(=S)ss1 | ATCC 10231 | 125 µg/mL
CC1CCC(C(C)C)C(OC(=O)c2ccc([N+](=O)[O-])cc2[N+](=O)[O-])C1 | - | 8.91 µM
CC1(C)CC(=O)c2cc(C3=CC(c4ccc(Cl)cc4)=CC3c3nnc4c(n3)Nc3ccccc3N4)[nH]c2C1 | ATCC 2091 | 200 µg/mL
Cc1c(S(=O)(=O)c2ccccc2)[n+](=O)c2cc(Cl)ccc2n1[O-] | Clinical isolate 8 | 31.25 µg/mL
CO[C@H]1[C@@H](O)[C@H](n2ccc(=O)[nH]c2=O)O[C@@H]1[C@@H](O[C@H]1OC(C(=O)N[C@H]2CSC[C@@H](C)NC2=O)=C[C@H](O)[C@@H]1O)C(N)=O | YU-1200 | >100 µg/mL
CCCn1sc2ncccc2c1=S | - | 25 µg/mL
CCCOc1ccc(C(=O)NN)c(O)c1 | Clinical isolates | 125–250 µg/mL
CN(Cc1cccc2ccccc12)/N=C\Cc1ccccc1 | - | >64 µg/mL
CS[C@@]1(Cc2ccccc2)NC(=O)[C@@](Cc2ccccc2)(SC)N(C)C1=O | - | 50 µg/mL
COc1ccc(C2=CC(c3ccc(S(N)(=O)=O)cc3)C(c3ccccc3)C2)cc1 | ATCC 2091 | 200 µg/mL
COc1ccc(C2CC(c3cccs3)=NN2c2nc(-c3ccc(Cl)cc3)cs2)cc1 | Clinical isolates | 125 µg/mL
Clc1ccc(C(Cn2ccnc2)OCc2cccc3ccccc23)cc1 | CA2 | >128 µg/mL
CCCCCCCSc1ccnc(C(N)=S)c1 | ATCC 44859 | >500 µM
CC1CCC(C(C)C)C(OC(=O)/C=C/c2ccccc2[N+](=O)[O-])C1 | - | 4.68 µM
CCCCCCOc1ccc(C(=O)O)c(O)c1 | Clinical isolates | 125–250 µg/mL
O=C(Cc1nnc2n1-c1nc3ccccc3nc1NN2)NNC(=S)Nc1ccccc1 | ATCC 2091 | 25 µg/mL

Repeating the final 5 entries:

SMILES | strain | result
Clc1ccc(C(Cn2ccnc2)OCc2cccc3ccccc23)cc1 | CA2 | >128 µg/mL
CCCCCCCSc1ccnc(C(N)=S)c1 | ATCC 44859 | >500 µM
CC1CCC(C(C)C)C(OC(=O)/C=C/c2ccccc2[N+](=O)[O-])C1 | - | 4.68 µM
CCCCCCOc1ccc(C(=O)O)c(O)c1 | Clinical isolates | 125–250 µg/mL
O=C(Cc1nnc2n1-c1nc3ccccc3nc1NN2)NNC(=S)Nc1ccccc1 | ATCC 2091 | 25 µg/mL